Our source for the activity, negative = inhibition values is PubChem BioAssay (NCATS).

The entries are a selection whose mix differs from that of the whole data set. Inconclusive results are not listed. Active and inactive are the calls of the source. Calls come from the whole dose curve; as a rule, active = well fitted inhibition curve with a large enough effect; inconclusive = small, poorly fitted or top-dose-only effect; inactive = flat fitted curve, though single readings scatter.

This assay concerns W2. Briefly: qHTS profiling for inhibitors of Plasmodium falciparum proliferation (AID 504749).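 Note: 0% = DMSO vehicle and full inhibition = artemisinin control; nearly all actives have a fitted effect of over 60% in size.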 The following applies: P. falciparum in erythrocytes, SYBR Green DNA, 72 h; at 28.7 µM (top of the series) unless noted. In outline:
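Quantitative HTS: compounds pinned into medium, infected erythrocytes added (0.3% parasitemia, 2.5% hematocrit), 72 h culture at 37 C under 5% CO2. Saponin/Triton lysis with SYBR Green I, overnight RT, then fluorescence read.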
(In general: Quantitative high-throughput screening tests each substance at several concentrations.)

Take `O=[N+]([O-])c1cccc([N+](=O)[O-])c1`: the activity, negative = inhibition was inactive: -10.6%.
In the case of `C/C1=C2N=C(/C=C3N=C(/C(C)=C4\[N-][C@@](C)([C@H]5N=C1[C@@](C)(CCC(=O)NC[C@H](C)OP(=O)([O-])O[C@@H]1[C@H](O)[C@H](n6cnc7cc(C)c(C)cc76)O[C@@H]1CO)[C@@H]5CC(N)=O)[C@](C)(CC(N)=O)[C@H]4CCC(N)=O)[C@@](C)(CC(N)=O)[C@@H]\3CCC(N)=O)C(C)(C)[C@@H]/2CCC(N)=O.[C-]#N.[Co+3]`, the activity, negative = inhibition is inactive: 0.456% [at 12.8 µM].
